The exact form of at least one protein or probe is not confirmed.

Here are results for 2 sequences from publication PMC6191537.

Data set [1] has as its system CsoR wild type. The data set is described as follows: EMSA. Particulars: anaerobic, 20 mM HEPES pH 7.0, 100 mM NaCl, 100 ng/ul poly(dI-dC), 1 mM DTT, 0.4 mg/ml BSA, room temperature, 30 min, 0.1 uM each DNA, 0-100 uM CsoR, 6% native PAGE, recombinant protein, residues 1-97, probe letters rebuilt from the primers and the genome, part of a longer molecule. For orientation: Mobility shift assays separate free from complexed probe on a gel.

Data set [2] relates to CsoR CHC C41A,H66A,C70A. Kind of data set: EMSA. Particulars: anaerobic, 20 mM HEPES pH 7.0, 100 mM NaCl, 100 ng/ul poly(dI-dC), 1 mM DTT, 0.4 mg/ml BSA, room temperature, 30 min, 0.1 uM each DNA, 0-100 uM CsoR, 6% native PAGE, recombinant protein, residues 1-97, probe letters rebuilt from the primers and the genome, part of a longer molecule.

With “CATATACGGGATAGGGGTATATACCATTTGACTTTTTTATTTTGTAGTGTACAGAAAATAACCATTTTCTGTACACTCTTTTTTTATATCGAAATAAGTGAGGATTACATTTATTTTTATGTTCAGAAACCCAATAAAAAATCTATGTTCATAAAAGTACCCGTATTTAAGTTATGGTACACTAATGATGGATATAGGAGGTTTGTATTTTGAAAATAGGTTATGCAAGAGTTTCAACAGGATTACAA (double strand) [PcopB]”, in data set [1] (no Cu(I) stated), the binding result is listed as “binds”.
Take “CCACATTATTGCCTCCCTGTGATTCATTGTTACACGTCTAATGTACCCCCTATAGGTATATAAGTCAATCGTTGCGTTTTACTTTTACCAATTTTAAAAAGAAAAAGAGAGATTGCCGTGCAAACATTGCACAACAATCTCTCTATTTAGCATCTATATAAAAGAAGTCGTAATTAATATTAAAGGATGTATGAATGAAAGGTAAAACTTAAATGACTTCTGGATTTGTAATTCTTAGGTGACTTAAAAGAAAT (double strand) [PcopA]”: the binding result in data set [2] (1 mol equivalent Cu(I)), in data set [2] (no Cu(I)) and in data set [1] (apo-CsoR) was “binds” throughout.
